Positions count from the first letter of the chain named. Human monoclonal antibodies against the spike receptor-binding domain (heavy:light variable regions). IC50 against pseudoviruses bearing the spike of naturally observed variants; lower = stronger; >10 µg/ml means not reached at the top dose. No active / inactive call. The stated detection limit is 0.0005 µg/ml; values near or below 0.001 µg/ml lie at the floor of the assay.
B1: BD58-0477 (protein)
chain 1: QVQLVESGGGVVQPGRSLRLSCAASGFTFSSSGMHWVRQAPGKGLEWVAVIWYEGTNKYYADSVKGRFTISRDNSKNTLYLQMNSLRAEDTAVYYCAKESGYSFGWGFNWFDPWGQGTLVTVSS
chain 2: QSVLTQPPSVSGAPGQRVTISCTGSSSNIGAGYDVHWYQQLPGTAPKLLIYGNSNRPSGVPARFSGSKSGTSASLAITGLQAEDEADYYCQSYDSRLGGLLFGGGTKLTVL
B2: BD58-0493 (protein)
chain 1: QVTLRESGPALVKPTQTLTLTCTFSGFSLSTAGMCVTWIRQPPGKALEWLALISWDDDKYYSTSLKTWLSISKDTSKNQVVLTLPNMDPVDTATYYCARINGQITHAFDIWGQGTMVTVSS
chain 2: EIVMMQSPATLSLSPGERATLSCRASQSVSSNLAWYQQKPGQAPRLLIYAASTRATGIPARFSGSGSGTEFTLTISSLQSEDFAVYYCQQYNNWPRYTFGQGTKLEIK
B3: BD58-0560 (protein)
chain 1: EVQLVESGGGVVQPGGSLRLSCAASGFTFDDYVLHWVRQAPGKGLEWVSLISGDGVTTYYADSVKGRFTISRDNSKNSLYLQMNSLRSEDTALYYCANYYYGMDVWGQGTTVTVSS
chain 2: SYELTQPPSVSVSPGQTARITCSGDALPKKYAYWYQQKPGQAPVLVIYKDTERPSGIPERFSASSSGTTVTLTISGVQAEDEADYYCQSTDSSGSFLFGPGTKVTVL
B4: BD58-0563 (protein)
chain 1: EVQLLESGGGRAQPGRSLRLSCAASGFTFGSYVMNWVRQAPGKGLEWVSTVSGTTGNTYYADSVKGRFTISRDNSKNTLYLQMNRLRAEDTAVYYCVTERRDFSSPYPSYFFDYWGQGTLVTVSS
chain 2: SSELTQDSAVSVALGQTVRITCQGDSLRSYYASWYQQKPGQAPMLVLYGNNNRPSGIPDRFSGSSSGRTASLTITGAQAEDEADYYCNSRDSSGNHRVFGGGTKLTVL
B5: BD57-0130 (protein)
chain 1: QLQLQESGPGLVKPSETLSLTCTVSGGSISSNNYYWGWIRQPPGKGLEWIGSIYYSGSTYYNPSLKSRVTISVDTSKNQFSLKLSSVTAADTAVYYCARRAAAAGTYQEFSFDYWGQGTLVTVSS
chain 2: B1 chain 2 with A62D, R96S, G98S, L100A, L101V
B6: BD57-0298 (protein)
chain 1: QVQLQESGPGLVKPSETLSLTCTVSGDSMGIHYWSWVRQPPGKGLEWVGSVYSSGSTNYNPPLKSRVAISVDTSNNQFSLMLNSVTAADTAVYFCARGYTWYATGGYYMDVWGKGTTVTVSS
chain 2: QSVLTQPPSVSGAPGQRVTISCTGTSSNIGAKYDVHWYRQLPGTAPKLLIYGNNNRPSGVPDRFSGSKSGTAASLAITGLQAEDEADYFCQSYDISLSGSVFGGGTKLTVL
B7: BD57-0370 (protein)
chain 1: QLQLQESGPGLVKPSETLSLTCTVSGGSLSSSSYYWGWIRQPPGKGLEWIGSIYYSGNTYYNPSLKSRVTISVDTSKNQFSLKLSSVTAADTAVYYCARRRYDYGDYGRFDPWGQGTLVIVSS
chain 2: B6 chain 2 with T25S, K32G, R39Q, Q40H, G52D, N54T, A72S, F89Y
B8: BD57-0383 (protein)
chain 1: QMQLVQSGPEVKKPGTSVKVSCKASGFTFTSSAIQWVRQARGQRLEWIGWIVVGSGNTNYAQKFQERVTITRDMSTSTVYMELSSLRSEDTAVYYCVAGGYSGYGALDYWGQGTLVTVSS
chain 2: not shown
B9: BD57-0395 (protein)
chain 1: QVQLVQSGAEVKKPGASVKVSCKASGYTFTNYYMHWVRQAPGQGLEWMGIINPNGGSTRYAQKFQGRVTMTRDTSTSTVYMELSSLRSEDTAVYYCASRGSGYDFSFYFDYWGQGTLVTVSS
chain 2: QSALTQPASVSGSPGQSISISCTGTSSDVGGYNYVSWYQQHPGKAPKLIIYDVSNRPSGVSNRFSGSKSGNTASLTISGLQAEDEADYYCSSYTSSYTHVVFGGGTKLTVL
B10: BD57-0318 (protein)
chain 1: QITLKESGPTLVKPTQTLTLTCTFSGFSLSTSGVGVGWIRQPPGKALEWLALIFWDDDKRYSPSLKSRLTITKDTSKNQVVLTMANMDPVDTATYYCAHSGHLLWFDSLFFDYWGQGTLVTVSS
chain 2: ERVMTQSPATMSVSPGERATLSCRASQSVSSNLAWYQQKPGQAPRLLIYGASTRATGIPARFSGSGSGTEFTLTISSLQSEDFAVYYCQQYNNWPPAFGPGTKVDIK

Legend:
Assay in all cases: pseudovirus neutralization IC50; higher = weaker neutralization
[1] = molecular target: SARS-CoV-2 Omicron BA.1 spike pseudovirus
Protocol: (§1)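 Single-round VSV luciferase pseudovirus mixed with antibody dilutions for 1 h and put on Huh-7 cells for about a day; IC50 from the dose curve.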

[2] = molecular target: SARS-CoV-2 Omicron BA.2 spike pseudovirus
Protocol: as §1

[3] = molecular target: SARS-CoV-2 Omicron BA.2.75 spike pseudovirus
Protocol: as §1

[4] = molecular target: SARS-CoV-2 Omicron BA.2.75.2 spike pseudovirus
Protocol: as §1

[5] = molecular target: SARS-CoV-2 Omicron BA.5 spike pseudovirus
Protocol: as §1

[6] = molecular target: SARS-CoV-2 Omicron BM.1.1.1 spike pseudovirus
Protocol: as §1

[7] = molecular target: SARS-CoV-2 Omicron BQ.1.1 spike pseudovirus
Protocol: as §1

[8] = molecular target: SARS-CoV-2 Omicron BR.2 spike pseudovirus
Protocol: as §1

[9] = molecular target: SARS-CoV-2 Omicron CA.1 spike pseudovirus
Protocol: as §1

[10] = molecular target: SARS-CoV-2 Omicron XBB spike pseudovirus
Protocol: as §1

[11] = molecular target: SARS-CoV-2 early D614G spike pseudovirus
Protocol: as §1

| Binder | pseudovirus neutralization IC50 [1] [µg/mL] | pseudovirus neutralization IC50 [2] [µg/mL] | pseudovirus neutralization IC50 [3] [µg/mL] | pseudovirus neutralization IC50 [4] [µg/mL] | pseudovirus neutralization IC50 [5] [µg/mL] | pseudovirus neutralization IC50 [6] [µg/mL] | pseudovirus neutralization IC50 [7] [µg/mL] | pseudovirus neutralization IC50 [8] [µg/mL] | pseudovirus neutralization IC50 [9] [µg/mL] | pseudovirus neutralization IC50 [10] [µg/mL] | pseudovirus neutralization IC50 [11] [µg/mL] |
| --- | --- | --- | --- | --- | --- | --- | --- | --- | --- | --- | --- |
| B1 | > 10 | > 10 | > 10 | > 10 | > 10 | > 10 | > 10 | > 10 | > 10 | > 10 | > 10 |
| B2 | > 10 | > 10 | > 10 | > 10 | > 10 | > 10 | > 10 | > 10 | > 10 | > 10 | > 10 |
| B3 | > 10 | > 10 | > 10 | > 10 | > 10 | > 10 | > 10 | > 10 | > 10 | > 10 | > 10 |
| B4 | > 10 | > 10 | > 10 | > 10 | > 10 | > 10 | > 10 | > 10 | > 10 | > 10 | > 10 |
| B5 | > 10 | > 10 | 0.328 | 0.637 | 0.208 | 1.29 | 0.981 | 0.783 | 0.978 | 2.46 | > 10 |
| B6 | > 10 | > 10 | > 10 | > 10 | 0.0864 | > 10 | > 10 | > 10 | > 10 | > 10 | > 10 |
| B7 | > 10 | 0.0628 | 0.00697 | 0.0105 | 0.00106 | 0.00901 | 0.00493 | 0.009 | 0.00812 | 0.00842 | > 10 |
| B8 | > 10 | > 10 | 0.381 | 0.383 | 0.282 | 0.861 | 0.59 | 0.482 | 0.627 | 3.09 | > 10 |
| B9 | > 10 | > 10 | > 10 | > 10 | 1.43 | > 10 | > 10 | > 10 | > 10 | > 10 | > 10 |
| B10 | > 10 | > 10 | > 10 | > 10 | > 10 | > 10 | > 10 | > 10 | > 10 | > 10 | > 10 |
